Test results taken from patent publication US20030194411A1.
Several values for one entry are separate records, joined by “and”; a condition that tells them apart may be missing. Identical values can stand only once.

Assays:
Assay in all cases: ELISA, peptide coat 5000 ng/ml
[1] = target: peptide 282 (GPGRAF)3C, …
[2] = target: peptide 284 …
[3] = target: peptide 285 …

Negative control serum of Table 10
OD [1]: 0.02 and 0.035 | OD [2]: 0.025 and 0.021 | OD [3]: 0.033
